Consider one molecule from article PMC6837752, “Effectiveness of four types of neuraminidase inhibitors approved in Japan for the treatment of influenza” (PLoS ONE, 2019).

In this assay the target is neuraminidase of H275Y mutated influenza A/H1N1pdm09 virus isolates (Influenza A virus (H1N1pdm09), UniProt C3W5S3, H275Y). Format: biochemical. The conditions noted are these: read-out: 50% inhibitory concentration.

The structures appear in SMILES notation.

For the molecule `CC(=O)N[C@H]1[C@H]([C@H](O)[C@H](O)CO)OC(C(=O)O)=C[C@@H]1N=C(N)N` [Zanamivir, zanamivir], the IC50 was determined as 0.8 nM.
